Anti-infective test results gathered from many reports (values: NIAID ChemDB through PubChem).

All rows: tests in culture; species: Mycobacterium smegmatis

a–b is a range or a potency band.

smiles	changes	strain or isolate	method	measure	result
CC(C)N1CCN(C(C)C)CC1		ATCC 607		EC50	>1000 µg/mL
CCCCCCCCC(O)[C@@H]1O[C@H]([C@H](O)CF)C(O)C1O		mc2155	absorbance	MIC	1.5 µM
CCCNCCNC(C)C		ATCC 607		EC50	<125 µg/mL
COc1c(N2CC[C@H](N)C2)c(F)cc2c(=O)n(N)c(=O)n(C3CC3)c12		G89C mutant		MIC99	6.25 µg/mL
CCCC(C)NCCNC(C)CCC		ATCC 607		EC50	>250 µg/mL
NCC(=O)c1ccc(Nc2ccn(CCCCN3CCC(N)CC3)c(=O)n2)nc1			turbidity	MIC	8–32 µg/mL
CCCCc1c(C2=C(Br)C(=O)NC2=O)c2ccccc2n1C		SG987		MIC	6.25 µg/mL
COc1c(N2CC[C@@H](CN)C2)c(F)cc2c(=O)n(N)c(=O)n(C3CC3)c12		WT		MIC99	5 µg/mL
Cc1[nH]c2ccccc2c1C1=C(Br)C(=O)N(C)C1=O		SG987		MIC	50 µg/mL
O=C(O)c1c2n(c3cc(F)c(N4CCN(Cc5ccc6c(c5)OCO6)CC4)cc3c1=O)CS2		ATCC 14468	agar	MIC	53.25 µM
CCCCCCCCCCCCCCCCCCCCCCCOC(=O)NC(CCC(=O)O)(CCC(=O)O)CCC(=O)O		mc155		MIC	72 µg/mL
CCCCCCCCOCC(C)(CO)[C@@H]1O[C@H]([C@H](O)CO)C(O)C1O		mc2155	absorbance	MIC	>2 µM
NNC(=O)c1ccncc1		MC^2 847		MIC	30 µg/mL
COc1ccc(-c2csc(N3N=C(c4cccs4)CC3c3ccc4c(c3)OCO4)n2)cc1		ATCC 607		EC50	>1000 µg/mL
NCCCNCc1ccnc(Nc2ccn(CCCCN3CCC(N)CC3)c(=O)n2)c1			turbidity	MIC	<8 µg/mL
O=C(O)c1c2n(c3cc(F)c(N4CCSCC4)cc3c1=O)CS2		ATCC 14468	agar	MIC	70.94 µM
CNC1CCN(CCCCn2ccc(Nc3ccc(CNCCCN)cn3)nc2=O)CC1			turbidity	MIC	32–128 µg/mL
CCCCCCCCC(O)[C@@H]1O[C@H]([C@H](O)CNC(=O)c2ccccc2)C(O)C1O		mc2155	absorbance	MIC	0.86 µM
O=C(O)c1c2n(c3cc(F)c(N4CCC5(CC4)OCCO5)cc3c1=O)CS2		ATCC 14468	agar	MIC	63.71 µM
CN1C(=O)C(Br)=C(c2c[nH]c3ccccc23)C1=O		SG987		MIC	6.25 µg/mL
CCCCCCCCCCCCCCCCC(=O)NC(CCC(=O)O)(CCC(=O)O)CCC(=O)O		mc155		MIC	27 µg/mL
COc1c(N2C[C@@H]3CCCN[C@@H]3C2)c(F)cc2c(=O)n(N)c(=O)n(C3CC3)c12		A91V mutant		MIC99	50 µg/mL
CCCCCCCCCCCC(CCCCCCCCCCC)NC(=O)NC(CCC(=O)O)(CCC(=O)O)CCC(=O)O		mc155		MIC	106 µg/mL
CCC1CN(c2cc3c(cc2F)c(=O)c(C(=O)O)cn3C2CC2)CCN1		D95Y mutant		MIC99	2 µg/mL
CCCCCCCCC(O)[C@@H]1O[C@H](CO)C(O)C1O		mc2155	absorbance	MIC	1.7 µM
C=C1C2CCC(C(=O)O)[C@@]23CC[C@H](C3)C1(C)C	Ciprofloxacin-resistant	CSC101	agar diffusion	MIC	6.25 µg/mL
O=C1NC(=O)C(c2c[nH]c3ccccc23)=C1Br		SG987		MIC	12.5 µg/mL
NC1CCN(CCCCn2ccc(Nc3cc(C(=O)N4CCC(CO)CC4)ccn3)nc2=O)CC1			turbidity	MIC	<8 µg/mL
COc1ccccc1-c1[nH]c2ccccc2c1C1=C(Br)C(=O)N(C)C1=O		SG987		MIC	6.25 µg/mL
COc1c(N2CC[C@@H](CN)C2)c(F)cn2c(=O)n(N)c(=O)c(C3CC3)c12		WT		MIC99	5 µg/mL
O=C(O)c1c2n(c3cc([N+](=O)[O-])c(N4CCC(O)(c5ccc(Cl)cc5)CC4)cc3c1=O)CS2		ATCC 14468	agar	MIC	6.42 µM
NCC[C@H](O)C(=O)N[C@@H]1C[C@H](N)[C@@H](O[C@H]2O[C@H](CN)[C@@H](O)[C@H](O)[C@H]2O)[C@H](O)[C@H]1O[C@H]1O[C@H](CO)[C@@H](O)[C@H](N)[C@H]1O		mc155		MIC	2.3 µg/mL
NC1CCN(CCCCn2ccc(Nc3ccc(C(=O)NC4CNC4)cn3)nc2=O)CC1			turbidity	MIC	<8 µg/mL
O=C(O)c1cn2c(n1)CN(c1cc3c(=O)c(C(=O)O)c4n(c3cc1F)CS4)CC2		ATCC 14468	agar	MIC	60.04 µM
COc1c(N2C[C@@H]3CCCN[C@@H]3C2)c(F)cc2c(=O)[nH]c(=O)n(C3CC3)c12		D95Y mutant		MIC99	400 µg/mL
Cc1onc(-c2c(F)cccc2F)c1C(=O)N1CCN(c2cc3c(=O)c(C(=O)O)c4n(c3cc2[N+](=O)[O-])CS4)CC1		ATCC 14468	agar	MIC	5.36 µM
COc1c(N2CCC(N)C2)c(F)cc2c(=O)c(C(=O)O)cn(C3CC3)c12		WT		MIC99	0.125 µg/mL

Repeating the final 2 entries:

smiles | changes | strain or isolate | method | measure | result
Cc1onc(-c2c(F)cccc2F)c1C(=O)N1CCN(c2cc3c(=O)c(C(=O)O)c4n(c3cc2[N+](=O)[O-])CS4)CC1 |  | ATCC 14468 | agar | MIC | 5.36 µM
COc1c(N2CCC(N)C2)c(F)cc2c(=O)c(C(=O)O)cn(C3CC3)c12 |  | WT |  | MIC99 | 0.125 µg/mL

Rows are shuffled and stem from different studies. ECn is the concentration giving n% inhibition of infection, replication or growth. MIC50, MIC90 and the like: level of inhibition, or share of isolates inhibited. An empty or dashed field is not shown.